Measured values from several laboratories, pooled; numbers as filed in NIAID ChemDB.

Common to all: whole-cell or culture tests; species: HIV-1

Neighbouring rows are from separate reports. ECn: concentration that inhibits the pathogen or its effect by n%. Blank or dashed fields: not listed here.

compound	strain	changes	endpoint	cells	conditions	method	value
CCCCCCCCC(=O)O[C@@H]1[C@@H](C)[C@]2(O)[C@@H]3C=C(C)C(=O)[C@@H]3CC(CO)=C[C@H]2[C@@H]2C(C)(C)[C@]12OC(=O)CCCCCCCC	IIIB		EC50	C8166		p24 / ELISA	6.23 µM
CCN1C[C@H](C)n2c(c(O)c3c(=O)n(Cc4ccc(F)c(Cl)c4)nc(C(=O)NC)c32)C1=O	NL4-3	G118R	EC50	PM1		RT activity	0.0035 µM
Clc1cc(CN2CCCNCCNCCCNCC2)cc(Cl)n1	R5 X4 clinical isolate #18		EC50	PBMC		p24	3.6 µM
CCCc1ccc(OP(=O)(N[C@@H](C)C(=O)OC)OC[C@@H]2OC[C@H](n3cc(C)c(=O)[nH]c3=O)O2)cc1	LAI	RT-M184V	EC90	PBMC		RT activity	1.6 µM
Oc1cccc2ccc(/C=N/Nc3ccccc3F)nc12	VB59		EC50	TZM-bl		luciferase	11.34 µM
COc1ccc(-c2c(C)nc3c(N4CC[C@@H](NS(N)(=O)=O)C4)cc(C)nn23)cc1OC			EC50	H9		p24	0.3 µM
CC(C)C1=C2[C@H]3CC[C@@H]4[C@@]5(C)CC[C@H](OC(=O)CC(C)(C)C(=O)O)C(C)(C)[C@@H]5CC[C@@]4(C)[C@]3(C)CC[C@@]2(NC(=O)c2ccn(C)n2)CC1=O	IIIB		EC50	MT-2	30% human serum	RT activity	<0.199 µM
Cc1cc(C)cc(S(=O)(=O)c2c(C(=O)NCC(=O)NN)[nH]c3ccc(Cl)cc23)c1	EFV-resistant (RT K103R V179D P225H)		EC50	C8166		p24	<1 µM
COc1cc(/C=C/C(=O)O[C@@H]2[C@@H](C)[C@@]3(O)[C@@H](C=C(CO)C[C@]4(O)C(=O)C(C)=C[C@@H]34)[C@@H]3C(C)(C)[C@]23OC(C)=O)ccc1O	IIIB		EC50	C8166		p24 / ELISA	77.92 µM
O=Cc1ccc2cccc(O)c2n1	UG070		EC50	TZM-bl		luciferase	10.57 µM
Nc1cccc2cc3ccccc3nc12			EC50	Jurkat cells			>50 µM
Cc1cc(C)cc(S(=O)(=O)c2c(C(=O)NC(C)C(N)=O)[nH]c3ccc(Cl)cc23)c1	IIIB		EC50	C8166		p24	<0.004 µM
Cc1ccccc1N/N=C/c1ccc2cccc(O)c2n1	UG070		EC50	TZM-bl		luciferase	>150 µM
COC(=O)[C@H](C)NP(=O)(OC[C@@H]1OC[C@H](n2cc(C)c(=O)[nH]c2=O)O1)Oc1ccc(Cl)cc1	LAI	RT-M184V	EC90	PBMC		RT activity	0.62 µM
CCC(=O)c1ccc(F)c([C@@H]2C[C@@H]2NC(=O)Nc2ccc(C#N)cn2)c1O	LAI	NNRTI-resistant (RT P236L)	EC50	TZM-bl		β-galactosidase / luminescence	0.00063 µM
CCCC(=O)O[C@@]12[C@H](OC(=O)/C=C/c3ccccc3)[C@@H](C)[C@@]3(O)[C@@H](C=C(COC(=O)/C=C/c4ccccc4)C[C@]4(O)C(=O)C(C)=C[C@@H]34)[C@@H]1C2(C)C	IIIB		EC50	C8166		p24 / ELISA	0.4696 µM
CC(C)C1=C2[C@H]3CC[C@@H]4[C@@]5(C)CC[C@H](OC(=O)CC(C)(C)C(=O)O)C(C)(C)[C@@H]5CC[C@@]4(C)[C@]3(C)CC[C@@]2(NC(=O)c2ccccn2)CC1=O	IIIB		EC50	MT-2	30% human serum	RT activity	<0.199 µM
COC(=O)c1ccccc1S(=O)(=O)c1cc(Br)sc1NC=O	IIIB		EC50	CEM + CEM/O		cytopathic effect / MTT	>8 µg/mL
CC(C)OC(=O)OCOP(=O)(CO[C@H](C)Cn1cnc2c(N)ncnc21)OCOC(=O)OC(C)C		K103N	EC50	C8166		p24 / ELISA	0.05067 µM
Cc1nc2ccccc2c(-c2ccc(Cl)cc2)c1[C@H](OC(C)(C)C)C(=O)O			EC50	MT-2			0.104 µM
O=C(Nc1sc(I)cc1S(=O)(=O)c1ccc(Cl)cc1)C(F)(F)F	IIIB		EC50	CEM + CEM/O		cytopathic effect / MTT	>8 µg/mL
COc1cc2ccnc3c2c(c1OC(=O)c1ccc(F)cc1)N(C)C=C3			EC50				10.9 µM
COc1ccc(-c2c3nc(C)nc(N4CC[C@@H](NC(C)=O)C4)c3nn2C)cc1OC			EC50	H9		p24	>100 µM
CC(C)C1=C2C3CCC4[C@@]5(C)CC[C@H](OC(=O)CC(C)(C)C(=O)O)C(C)(C)C5CC[C@@]4(C)[C@]3(C)CC[C@@]2(NC(=O)c2cn[nH]c2)CC1=O	IIIB		EC50	MT-2	30% human serum	RT activity	<0.199 µM
COC(=O)[C@H](C)NP(=O)(OC[C@@H]1OC[C@H](n2cc(C)c(=O)[nH]c2=O)O1)Oc1ccc(C)cc1	LAI	RT-M184V	EC50	PBMC		RT activity	0.61 µM
Cc1cc(C)cc(S(=O)(=O)c2c(C(=O)NCC(=O)NC(C)C(=O)NN)[nH]c3ccc(Cl)cc23)c1	IIIB		EC50	MT-4		cytopathic effect / MTT	0.08 µM
CC1CC(C)CN(S(=O)(=O)c2ccccc2[N+](=O)[O-])C1	7324-1		EC50	HeLa		GFP / fluorescence	1.1 µM
NNC(=O)c1[nH]c2ccc(Cl)cc2c1S(=O)(=O)c1ccccc1	IIIB		EC90	C8166		p24	0.02 µM
COc1ccc(-c2c(C)nc3c(N4CC[C@@H](NS(=O)(=O)c5ccc(C)cc5)C4)cc(C)nn23)cc1OC			EC50	H9		p24	0.09 µM
CCCC(=O)O[C@@]12[C@H](OC(=O)/C=C/c3ccccc3)[C@@H](C)[C@@]3(O)[C@@H](C=C(COC(=O)/C=C/c4ccc5c(c4)OCO5)C[C@]4(O)C(=O)C(C)=C[C@@H]34)[C@@H]1C2(C)C	IIIB		EC50	C8166		p24 / ELISA	0.6714 µM
CCc1ccc(C(=O)Oc2c(OC)cc3ccnc4c3c2N(C)C=C4)cc1			EC50				0.5 µM
Cc1cc(C)cc(S(=O)(=O)c2c(C(=O)NCC(N)=O)[nH]c3ccc(Cl)cc23)c1	EFV-resistant (RT K103R V179D P225H)		EC50	C8166		p24	<0.1 µM
Cc1cn([C@H]2C=C[C@@H](CO)O2)c(=O)[nH]c1=O	RD 22-RT-K65R M202I Recombinant		EC50	MT-4		cytopathic effect / MTT	0.28 µM
Cc1c(-c2ccc(SCCN(C)C)cc2)ncnc1-c1ccc(SCCN(C)C)cc1	LAV-1		EC50	PBMC		RT activity	6 µM
O=C(Nc1sccc1S(=O)(=O)c1ccc(Cl)cc1)C(F)(F)F	IIIB		EC50	CEM + CEM/O		cytopathic effect / MTT	>1.6 µg/mL
Cc1nnc(C(=O)N[C@@]23CC[C@]4(C)[C@H](CC[C@@H]5[C@@]6(C)CC[C@H](OC(=O)CC(C)(C)C(=O)O)C(C)(C)[C@@H]6CC[C@]54C)C2=C(C(C)C)C(=O)C3)o1	IIIB		EC50	MT-2	30% human serum	RT activity	<0.199 µM
COc1ccc(-c2c(C)nc3c(N4CC[C@@H](SC(C)=O)C4)cc(C)nn23)cc1OC			EC50	H9		p24	0.3 µM
CC(C)C1=C2C3CCC4[C@@]5(C)CC[C@H](OC(=O)CC(C)(C)C(=O)O)C(C)(C)C5CC[C@@]4(C)[C@]3(C)CC[C@@]2(NC(=O)NCC2CCCCC2)CC1=O	IIIB		EC50	MT-2	30% human serum	RT activity	<0.199 µM
[O-][n+]1onc2ncnc(N3CC[N+]4(CC3)CC[N+]3(CCN(c5ncnc6no[n+]([O-])c56)CC3)CC4)c21	RF		EC50	CEM + CEM-SS		cytopathic effect / XTT	150 µM
COC(=O)CC(=O)Nc1sccc1S(=O)(=O)c1ccc(C)cc1	IIIB		EC50	CEM + CEM/O		cytopathic effect / MTT	>40 µg/mL
CCN1c2nc(C(F)(F)F)ccc2NC(=O)c2cc(CCOc3cc[n+]([O-])c4ccccc34)cnc21		RT-V106A	EC50	C8166		p24	0.083 µM
OCCNc1nc(-c2cccs2)cc(-c2cccs2)n1	LAV-1		EC50	PBMC		RT activity	33.2 µM
CC(=O)N[C@@H]1CCN(c2cc(C)nn3c(-c4cccc(S(C)(=O)=O)c4)c(C)nc23)C1			EC50	H9		p24	>1 µM
CCCCCCCCCCCCCCCCOCCCOP(=O)(N[C@@H](C)C(=O)OC)OC[C@@H]1OC[C@H](n2cc(C)c(=O)[nH]c2=O)O1	LAI	RT-M184V	EC90	PBMC		RT activity	15 µM
Cc1cc(C#CCCO)cc(C)c1Oc1ccnc(Nc2ccc(C#N)cc2)n1	IIIB	K103N	EC50	MT-4		MTT	0.026 µM
Cc1cn([C@H]2CO[C@@H](COP(=O)(N[C@@H](C)C(=O)OC(C)(C)C)Oc3ccccc3)O2)c(=O)[nH]c1=O	LAI	RT-M184V	EC90	PBMC		RT activity	>100 µM
CC(C)C1=C2C3CCC4[C@@]5(C)CC[C@H](OC(=O)CC(C)(C)C(=O)O)C(C)(C)C5CC[C@@]4(C)[C@]3(C)CC[C@@]2(NC(=O)C(C)(C)C)CC1=O	IIIB		EC50	MT-2	30% human serum	RT activity	<0.199 µM
COC(=O)[C@H](C)NP(=O)(OC[C@@H]1OC[C@H](n2cc(C)c(=O)[nH]c2=O)O1)Oc1ccc(Br)cc1	LAI	RT-M184V	EC90	PBMC		RT activity	1.4 µM
Nc1ccc2nc3ccccc3cc2c1	Latently infected cell		EC50	ACH2		MTT	>50 µM
O=C(NCc1ccc(F)cc1)c1ncc2cccnc2c1O			EC50	MT-4	50% human serum	p24	<6 µM
CCCCCCCCCC[N+](C)(C)CCCNCc1c(O)cc2c(c1O)-c1cc(ccc1O)[C@H]1NC(=O)[C@@H]3NC(=O)C4NC(=O)[C@@H](Cc5ccc(c(Cl)c5)Oc5cc3cc(c5O)Oc3ccc(cc3Cl)[C@@H](O)[C@H](NC1=O)C(=O)N[C@@H]2C(=O)O)NC(=O)[C@H](N)c1ccc(O)c(c1)Oc1cc(O)cc4c1		RT-Y188H	EC50	CEM		syncytia	6 µM
CC(=O)c1c(C)nc(-c2ccccc2)nc1NC(=O)c1ccccc1	14AG		EC50	HeLa		GFP / fluorescence	8.7 µM
CN(C)CCSc1cccc(-c2cc(-c3cccc(SCCN(C)C)c3)nc(SCCN(C)C)n2)c1	LAV-1		EC50	PBMC		RT activity	6.2 µM
CC(=O)O[C@@]12[C@H](OC(=O)CCCCC3SCC4NC(=O)NC43)[C@@H](C)[C@@]3(O)[C@@H](C=C(CO)C[C@]4(O)C(=O)C(C)=C[C@@H]34)[C@@H]1C2(C)C	IIIB		EC50	C8166		p24 / ELISA	>200 µM
Cc1cn([C@H]2CO[C@@H](COP(=O)(N[C@@H](C)C(=O)OCc3ccccc3)Oc3ccc(Br)cc3)O2)c(=O)[nH]c1=O	LAI	RT-M184V	EC50	PBMC		RT activity	1.9 µM
CCN(CC)C(=O)Oc1c(OC)cc2ccnc3c2c1N(C)C=C3			EC50				45.9 µM
CC(=O)N[C@@H]1CCN(c2cc(C)nn3c(-c4cccs4)c(C)nc23)C1			EC50	H9		p24	0.3 µM
COc1cc2ccnc3c2c(c1O)N(C)C=C3			EC50				0.6 µM
CN(C)CCSc1nccc(-c2ccc(-c3ccnc(SCCN(C)C)n3)s2)n1	LAV-1		EC50	PBMC		RT activity	1.4 µM
Cc1c(C(C)c2c(F)cccc2F)nc(N(C)C)[nH]c1=O		K103N + Y181C	EC50	MT-4		MTT	90 µM
Cc1cccc(N/N=C/c2ccc3cccc(O)c3n2)c1C	VB59		EC50	TZM-bl		luciferase	14.9 µM
COC(=O)CNP(=O)(OC[C@@H]1OC[C@H](n2cc(C)c(=O)[nH]c2=O)O1)Oc1ccccc1	LAI	RT-M184V	EC90	PBMC		RT activity	14.2 µM
CC(C)C1=C2[C@H]3CC[C@@H]4[C@@]5(C)CC[C@H](OC(=O)CC(C)(C)C(=O)O)C(C)(C)[C@@H]5CC[C@@]4(C)[C@]3(C)CC[C@@]2(NC(=O)CN(C)C)CC1=O	IIIB		EC50	MT-2	30% human serum	RT activity	<0.199 µM
NC(=O)CCNC(=O)c1ccccc1SCc1ccc([N+](=O)[O-])o1	RF		EC50	CEM		XTT	0.85 µM

A second listing of 7 rows from above:

compound | strain | changes | endpoint | cells | conditions | method | value
CCCC(=O)O[C@@]12[C@H](OC(=O)/C=C/c3ccccc3)[C@@H](C)[C@@]3(O)[C@@H](C=C(COC(=O)/C=C/c4ccccc4)C[C@]4(O)C(=O)C(C)=C[C@@H]34)[C@@H]1C2(C)C | IIIB |  | EC50 | C8166 |  | p24 / ELISA | 0.4696 µM
COC(=O)[C@H](C)NP(=O)(OC[C@@H]1OC[C@H](n2cc(C)c(=O)[nH]c2=O)O1)Oc1ccc(Br)cc1 | LAI | RT-M184V | EC90 | PBMC |  | RT activity | 1.4 µM
Cc1cccc(N/N=C/c2ccc3cccc(O)c3n2)c1C | VB59 |  | EC50 | TZM-bl |  | luciferase | 14.9 µM
COc1ccc(-c2c(C)nc3c(N4CC[C@@H](NS(=O)(=O)c5ccc(C)cc5)C4)cc(C)nn23)cc1OC |  |  | EC50 | H9 |  | p24 | 0.09 µM
CCCCCCCCC(=O)O[C@@H]1[C@@H](C)[C@]2(O)[C@@H]3C=C(C)C(=O)[C@@H]3CC(CO)=C[C@H]2[C@@H]2C(C)(C)[C@]12OC(=O)CCCCCCCC | IIIB |  | EC50 | C8166 |  | p24 / ELISA | 6.23 µM
Cc1ccccc1N/N=C/c1ccc2cccc(O)c2n1 | UG070 |  | EC50 | TZM-bl |  | luciferase | >150 µM
COc1cc2ccnc3c2c(c1OC(=O)c1ccc(F)cc1)N(C)C=C3 |  |  | EC50 |  |  |  | 10.9 µM